Results: paper PMC12692169, “Identification of Novel TAT-I24-Related Peptides with Antiviral Activities” (International Journal of Molecular Sciences, 2025)

System: plasmid-DNA (dsDNA)
Experiment: Fluorescence-based dsDNA-binding assay (SYBR Gold, plasmid DNA)
Settings: TAT-I24 as reference, three independent experiments in duplicates

GRKKRRQRRRPPQ [TAT, reference compound]
dsDNA-binding (reduction in SYBR Gold fluorescence): decrease in fluorescence intensity but to a lower extent compared to TAT-I24
